PubChem BioAssay AID624099, ICCB-Longwood, 2012

Test: 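Knock-downs relieving repression by E2 of an HPV18 LCR luciferase reporter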 (primary screen)
Cell system: human C33A cervical carcinoma cells (HPV-negative) stably expressing BPV1 E2 and an HPV18 LCR luciferase reporter
Knock-down reagent: siRNA pool against human genes, 40 nM
Duration: 72 h
Detection: 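HPV18 LCR reporter light per well, converted to plate-wise z-scores that exclude control wells, and averaged over triplicate plates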
Reading the numbers: mean z-score and z-score: higher = stronger reporter signal, weaker E2 silencing
Rule for the call: 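Hit if mean z-score reaches 2 and two or more of three replicate z-scores also reach 2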
The deposit covers about 21,000 reagents; below is an unselected part. 497 of them (2.4%) count as active. 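Higher z means weaker E2 silencing; only reporter increases were scored, and knock-downs that hurt cell survival may mask genuine repressor factors.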

gene symbol | mean z-score | z-score, replicate A | z-score, replicate B | z-score, replicate C | call
CRACR2A | 0.89 | 0.88 | 0.87 | 0.93 | inactive
SEL1L3 | 0.01 | 0.14 | 0.23 | -0.33 | inactive
OR51A4 | -0.01 | -0.05 | 0.09 | -0.06 | inactive
AMBP | 0.03 | -0.19 | 0.1 | 0.17 | inactive
HYDIN | -0.24 | -0.02 | -0.3 | -0.4 | inactive
ZNF501 | -0.45 | -0.01 | -0.91 | -0.42 | inactive
UXS1 | 1.08 | 1.26 | 0.64 | 1.34 | inactive
UBE2G1 | 0.44 | 0.53 | 0 | 0.78 | inactive
BCKDHA | 0.65 | 0.68 | 0.75 | 0.52 | inactive
BCL7B | 1.08 | 1.24 | 0.74 | 1.25 | inactive
SRSF9 | -2.05 | -2.13 | -2.05 | -1.99 | inactive
NOP56 | -0.6 | -0.51 | -0.66 | -0.63 | inactive
NSMCE1-DT | -1.17 | -0.93 | -1.24 | -1.33 | inactive
MEP1A | 0.35 | 0.79 | 0.32 | -0.07 | inactive
SNTG1 | -1 | -0.88 | -0.99 | -1.13 | inactive
ZMYM3 | 0.5 | 0.64 | 0.59 | 0.27 | inactive
AADAC | -0.06 | -0.02 | -0.16 | -0.01 | inactive
ENKUR | -0.43 | -0.67 | -0.37 | -0.26 | inactive
LOC283155 (retired record) | 0.03 | -0.08 | 0.19 | -0.03 | inactive
TAS2R50 | -0.12 | 0.19 | -0.27 | -0.27 | inactive
MAPRE3 | -0.73 | -0.63 | -1.05 | -0.49 | inactive
DCTN5 | -0.93 | 0.21 | -2.96 | -0.03 | inactive
HEATR9 | -0.18 | -0.42 | -0.09 | -0.03 | inactive
